Assay results published in the supplement of paper PMC9931576.
Human monoclonal antibodies against the spike receptor-binding domain (heavy:light variable regions). IC50 against pseudoviruses bearing the spike of naturally observed variants; lower = stronger; >10 µg/ml means not reached at the top dose. No active / inactive call. The stated detection limit is 0.0005 µg/ml; values near or below 0.001 µg/ml lie at the floor of the assay.

Legend:
Test in all cases: pseudovirus neutralization IC50; higher = weaker neutralization
[1] = molecular target: SARS-CoV-2 Omicron BA.1 spike pseudovirus
Protocol: (§1)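 Single-round VSV luciferase pseudovirus mixed with antibody dilutions for 1 h and put on Huh-7 cells for about a day; IC50 from the dose curve.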

[2] = molecular target: SARS-CoV-2 Omicron BA.2 spike pseudovirus
Protocol: as §1

[3] = molecular target: SARS-CoV-2 Omicron BA.2.75 spike pseudovirus
Protocol: as §1

[4] = molecular target: SARS-CoV-2 Omicron BA.5 spike pseudovirus
Protocol: as §1

[5] = molecular target: SARS-CoV-2 Omicron BQ.1.1 spike pseudovirus
Protocol: as §1

[6] = molecular target: SARS-CoV-2 Omicron XBB spike pseudovirus
Protocol: as §1

[7] = molecular target: SARS-CoV-2 early D614G spike pseudovirus
Protocol: as §1

Binder | pseudovirus neutralization IC50 [1] [µg/mL] | pseudovirus neutralization IC50 [2] [µg/mL] | pseudovirus neutralization IC50 [3] [µg/mL] | pseudovirus neutralization IC50 [4] [µg/mL] | pseudovirus neutralization IC50 [5] [µg/mL] | pseudovirus neutralization IC50 [6] [µg/mL] | pseudovirus neutralization IC50 [7] [µg/mL]
BD55-4483 (protein) chain 1: EVQLVESGGGLVQPGRSLRLTCAASGFAFDDHAMHWVRQAPGKGLEWVAGISWHSGSIGYGDSVKGRFTISRDNAKNSLYLQMNSLRAEDTALYYCAKESRFGYTGYDFLGVEAFDIWGQGTKVSVSS chain 2: QSVLTQPPSVSGAPGQTVTISCTGSSSNIGAGYDVHWYQQLPGTAPKLLIYGNTNRPSGVPDRFSGSKSGTSASLAITGLQAGDEADYYCQSFDSSLSGSTVFGGGTKVTVL | > 10 | > 10 | > 10 | > 10 | > 10 | > 10 | 0.062
BD55-5167 (protein) chain 1: QITLKESGPTLVKPTQTLTLTCTFSGFSLTTTGMGVGWIRQPPGKAPEWLALIYWLDDTRYSPSLESRLTLTKDTSKNLVVLTMTNMDPVDTATYYCAHLYYDSSSGYDTTGPDAFDFWGQGTMVTVSP chain 2: AIQITQSPSSLSASPGDRVTITCRASQGISSFLAWYQQRRGRAPKLLIHSASTLQNGVPSRISGSGSGTDFTLTITGLQSEDFATYYCQQYYSYPPTFGHGTKVEF | > 10 | > 10 | > 10 | > 10 | > 10 | > 10 | 0.0369
BD55-4359 (protein) chain 1: QVTLRESGPALVKPTQTLTLTCTYSGFSVNTRGMCVSWIRQPPGKALEWLALIAWDDDTSYSKSLKTRLSIYKDTSKNQVVLTMTNMDPVDTATYYCARGTGVAGDNWFDPWGQGTLVTVSS chain 2: SYELTQPPSVSVSPGQTARIACSGDAFPNQYAYWYQQKPGQAPVLVIYKDSERPSGIPERFSGSSSGTTVTLTISGVQAEDEADYFCQSADSSGVVFGGGTKLTVL | > 10 | > 10 | > 10 | > 10 | > 10 | > 10 | > 10
BD55-4664 (protein) chain 1: QVQLQQWGAGLLRPSETLSLTCAVSGGSFSGYYWSWIRQPPGKGLEWIGEINHTGGTNYNPSLKSRVTVSIDMSRNQFSVKLNSLTAADTAVYFCAREAPDYFDSSGYRFDYWGQGALVTISS chain 2: QSALTQPASVSGSPGQSITISCTGTSNDVGGYNYVSWYQQHPGKAPKLIIYDVTSRPSGISNRFSGSKSGNTASLTISGLQAEDEADYYCCSYTRSFTRVFGGGTKLTVL | 0.209 | 0.242 | 0.549 | 0.738 | > 10 | > 10 | 0.0803
BD55-4662 (protein) chain 1: QVQLQESGPGLVKPSETLSLTCTVSGASISSYYWTWIRQPPGKGLEWIGYIYNSGSTDYSPRGSTNYSPSLESRVTISVDTSKNQFSLKLSSVTAADTAVYHCARHPWTEMATYRSAYYFDSWGQGTLVTVSS chain 2: QSALTQPASVSGSPGQSITISCTGTTSDVGAYNHVSWYQQHPGKAPNLMIYDVSERPSGVSDRFSASKSGNTASLTISGLQAEDEADYYCCSYAGRSTWMFGGGTKLTVL | 0.136 | 0.118 | 0.0751 | > 10 | > 10 | > 10 | 0.00254
BD55-1027 (protein) chain 1: QVQLQQWGAGLLKPSETLSLNCTVHGGPFRNFYWSWIRQSPGMGLEWIGEISHTGSTNYNPSLRSRVTISLDTPKSQFSVTLTSVTAADTAVYYCARETVGAAGYGAFDLWGQGTMVSVSS chain 2: QAGLTQPPSVSKALGQTATLTCTGNSNTVGNQGAAWLQQRQGRPPKLLSYRNNNRPAGISERFSASNSGNTASLTIDRLQPEDEADYYCSAWDSSISAWLFGGGTKLTVL | 2.4 | 7.24 | 3.87 | 7.31 | 8.83 | > 10 | 1.14
BD55-4364 (protein) chain 1: EVQLVESGGALVQPGGSLRLSCAASGFTFSTYAMHWVRQAPGKGLEYVAAINNNGGGTFYANSVKGRFTISRDNSKNTLYLQMGSLRAEDMSVYYCAREGHSSNWYGLFFDYWGQGTLVTVSS chain 2: DIQMTQSPSSLSASVGDRVTITCRASQSINNYLNWYQQKPGKAPKLLIYAASTLQSGVPSRFSGSGSGTDFTLTISSLQPEDFATYYCQQSYITPMYTFGRGTKLEIK | > 10 | > 10 | > 10 | > 10 | > 10 | > 10 | > 10
BD55-4358 (protein) chain 1: EVQLVQSGAEVKKPGESLRISCKGSGYSFTSYWISWVRQMPGKGLEWMGRIDPSDSYTKYSPSFQGHVTISVDKSISTAHLQWSSLKASDTAMYYCARHEKHYYDRSGDYPHAEYFQYWGQGTLITVSS chain 2: EIVLTQSPGTLSLSPGERATLSCRASQSVSNNYLAWYQQKPGQAPRLLISGVSSRATGIPDRFSGSASGTDFTLTISRLEPEDFAVYYCQQYGSSSPMYTFGQGTKLEIK | 0.649 | > 10 | > 10 | > 10 | > 10 | > 10 | 0.137
BD55-5164 (protein) chain 1: QLQLQESGPGLVKPSETLSLTCIVSRGSISSSSYFWAWVRQAPGKGLEWIGTIDYTGNTHYNTSLKSRVTISVDTSKNQFSLRLRSVTAADTALYFCSRQSAPPWGSSWGDYWGRGTLVTVSS chain 2: DIQMTQSPSSLSASVGDRVTISCQASQDISNYLNWYHQTPGKAPILLIFDASNLEAGVPSRFSGSGSGRHFSFTISSLQPEDTGTYYCQQYANLPALTFGGGTKVDIK | > 10 | > 10 | > 10 | > 10 | > 10 | > 10 | 2.19
BD55-4360 (protein) chain 1: QVQLVESGGGVVQPGRSLRLSCAASGFTFSSYAMHWVRQAPGKGLEWVAIISNDGNNKFYADSVKGRFIISRDNSRNTLYLQMNSLRAEDTALYYCARDRGTYYDLLDYWGQGTLVTVSS chain 2: DIVMTQSPDSLAVSLGERATINCKSSQKILSSSNNKNYLAWYQQKPGQPPKLLIYWASTRESGVPDRFTGSGSGTDFTLTISSLQAEDVAVYYCQQYYNTPVLTFGGGTKVEIK | > 10 | > 10 | > 10 | > 10 | > 10 | > 10 | > 10
BD55-4382 (protein) chain 1: QVQLVQSGAEVKKPGSSVKVSCKASGGNFIRDAFSWVRQAPGQGLEWMGRIIPFLEIPIYAQKFQDRVTITADKPTSTAYMELSSLRSEDTAVYYCARAQIVDIALAYNAVYYYGMDVWGQGTTVTVSS chain 2: DIQLTQSPSFLSASVGDRVTITCRASQGINNYLAWYQQNPGRAPKLLIYVASSLQSGVPSRFSGSGSGTEFTLTISSLQPEDFATYYCQQLNSYPLTFGGGTKVEIK | > 10 | > 10 | > 10 | > 10 | > 10 | > 10 | 2.34
BD55-4484 (protein) chain 1: EAQLVESGGGLVQPGGSLRLSCAASGFTFSDYEMNWVRQAPGKGLEWVSFISSSANTIYYADSVKGRFTISRDNAKNSLYLQMNSLRAEDTAVYYCARTKGFDWLLNGGYYYGMDVWGQGATVTVSS chain 2: QSVLTQPPSVSAAPGQRVTISCTGSSSNIGAGYDVHWYQQHPGTTPKLLIYASTNRPSGVPDRFSGSNSGTSASLAITGLQAEDEAYYYCQSYDFSVSGYVVFGGGTKLTVL | 0.0623 | 0.26 | 0.299 | 1.12 | 0.317 | 1.21 | 0.0264
